## Single amino acid changes in Zika NS2B-NS3 and viral growth

Protein: NS2B and the protease part of NS3 of Zika virus strain MR766. Positions count along the chain below; NS2B spans 2-131 and NS3 starts at 132.
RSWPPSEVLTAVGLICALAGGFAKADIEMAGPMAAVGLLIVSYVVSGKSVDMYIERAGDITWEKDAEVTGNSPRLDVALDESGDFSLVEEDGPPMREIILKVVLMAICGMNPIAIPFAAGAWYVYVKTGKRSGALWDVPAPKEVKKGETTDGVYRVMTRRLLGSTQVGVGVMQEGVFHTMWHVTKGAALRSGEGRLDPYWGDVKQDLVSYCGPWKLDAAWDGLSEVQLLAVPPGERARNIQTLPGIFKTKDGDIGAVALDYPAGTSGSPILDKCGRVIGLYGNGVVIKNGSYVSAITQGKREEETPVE

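Libraries of single mutants were passaged as virus pools on Huh-7.5 cells. The effect is the change in frequency of a mutant, normalised to wild type, as a mean of three replicate libraries (two for positions 207-308). The aim was to find sites where inhibitor-binding pockets cannot change.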

The number is log2 of the effect relative to wild type; negative values mean reduced growth, higher values better tolerance.
Each entry names the wild-type residue, its position and the residue put in its place.
This list holds changes to histidine only.
Position 1 still belongs to NS2A. In the paper, -1 or higher counts as tolerated.
The region was split into three libraries (1-103, 104-206, 207-308).
Values above 0 are not proof of better growth: six high scorers were tested one by one, five grew less well than wild type and one about as well.

For R1H the result was -7.54. For S2H the result was -6.20. With W3H the assay gave -5.23. With P4H the assay gave -2.65. With P5H the assay gave -3.32. S6H gave -0.45. E7H read -0.63. V8H gave -4.23.

L9H gave -2.85. With T10H the assay gave -3.22. With A11H the assay gave -6.28. V12H gave -5.60. G13H read -5.74. L14H gave -5.62. I15H read -6.83. C16H gave -6.80.

With A17H the assay gave -5.88. With L18H the assay gave -7.19. For A19H the result was -5.75. G20H gave -5.89. G21H read -5.25. F22H gave -5.71. A23H read -0.76. With K24H the assay gave 0.64.

For A25H the result was -3.81. For D26H the result was -2.57. With I27H the assay gave -2.99. E28H gave -1.70. M29H read -1.52. A30H gave -0.74. G31H gave -5.55. P32H gave -4.48.

For M33H the result was -1.59. With A34H the assay gave -5.84. A35H read -5.73. With V36H the assay gave -4.35. With G37H the assay gave -4.93. L38H gave -4.85. L39H read -4.52. For I40H the result was -4.51.

For V41H the result was -5.25. For S42H the result was -5.29. For Y43H the result was -5.42. V44H read -5.60. With V45H the assay gave -6.06. S46H gave -0.99. G47H gave -6.19. For K48H the result was -5.70.

S49H gave -2.30. For V50H the result was -4.05. D51H gave -4.34. With M52H the assay gave -6.42. Y53H gave -4.22. I54H read -6.33. For E55H the result was -5.87. With R56H the assay gave -1.09.

6 of these entries, quoted again:

mutation	log2 effect
I27H	-2.99
A23H	-0.76
S49H	-2.30
G31H	-5.55
I40H	-4.51
V41H	-5.25

From the data files of Ni et al. 2025, doi:10.1038/s41467-025-63602-z.